No signal at the amounts used counts as a negative. Protein sequences can lack the tags named with them.
Target: T1, MobAR (minMobA) (plasmid RSF1010) (UniProt P07112)
T1 sequence (looked up): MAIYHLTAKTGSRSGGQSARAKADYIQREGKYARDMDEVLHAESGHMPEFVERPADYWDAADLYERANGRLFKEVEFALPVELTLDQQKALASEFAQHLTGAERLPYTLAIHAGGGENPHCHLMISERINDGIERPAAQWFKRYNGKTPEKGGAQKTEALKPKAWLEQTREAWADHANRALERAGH
Experiment: SDS-PAGE covalent complex
Settings: 5 mM Mg2+, no cleavage; Covalent complex: 15 uM oligo, 37 C 1 h, 5 mM MgCl2, 15 uM EDTA; TrwCR 10 mM Tris pH 7.6, 375 mM NaCl; MobAR 25 mM Tris pH 8.0, 225 mM NaCl; TraIR 10 mM Tris pH 7.6; recombinant protein; residues 1-186; folded or branched …

Row | Sequence | binding result
1 | TAAGTGCGCCCTCCCCAGTTTCTCGAAGAGAAACCG [RSF1010 RQ(8+28)] | no binding
2 | TAAGTGCGCCCTCCCAGCTGAATGTTCGAGTTTCTCGAAGAGAAACCG [RSF1010 RQ(8+40)] | no binding
